{
  "source": "paper PMC6468590",
  "about": "“Novel Flavivirus Antiviral That Targets the Host Nuclear Transport Importin α/β1 Heterodimer” (Cells, 2019)",
  "target": "His6-DENV2 (TSV101) NS5 (dengue virus 2 (TSV101))",
  "assay": "AlphaScreen or HTRF",
  "data": [
    {"substance": "prebound His6-IMPα/biotinylated-IMPβ1 heterodimer (from UniProt P52293 1-529; P70168 1-876) (complex)", "values": [
      {"measurement": "Kd", "value": 0.8, "unit": "nM"}
    ]}
  ]
}
